Pooled drug test results. Numbers come from NIAID ChemDB, via PubChem.

All rows: tests in culture; organism: Human cytomegalovirus; read by: plaque count; measure: EC50

ECn: concentration that inhibits the pathogen or its effect by n%.

smiles	cell line	strain or isolate	result
Nc1nc2c(ncn2COC(CO)CO)c(=O)[nH]1	HFF	TOWNE	7.2 µM
Nc1ccn(C[C@H]2COP(=O)(O)CO2)c(=O)n1.O=C(O)P(=O)(O)O	MRC-5	PC92 (ganciclovir- foscarnet-susceptible)	1.16 µM
CCc1cn([C@H]2C[C@H](O)[C@@H](CO)O2)c(=S)nc1N	MRC-5	AD169	>277.4 µM
OC[C@@H]1O[C@@H](n2c(Cl)nc3cc(Cl)c(Cl)cc32)[C@H](O)[C@@H]1O	HFF	TOWNE	24 µM
O=C(NCc1ccc(Cl)cc1)c1c[nH]c2ccc(CCCO)cc2c1=O	-	SCH	0.7 µM
O=C(O)/C=C/c1cn([C@@H]2O[C@H](CO)[C@@H](O)[C@@H]2O)c(=S)[nH]c1=O	MRC-5	T-137	>213 µM
CC(C)Nc1nc2cc(Cl)c(Cl)cc2n1[C@H]1O[C@@H](CO)[C@H](O)[C@@H]1O	MRC-5	AD169	0.54 µM
O=C(NCc1ccc(Cl)cc1)c1cn2c3c(cc(CN4CCOCC4)cc3c1=O)OC(c1cccnc1)C2	HFF	Coffman	5.2 µM
OC[C@H]1O[C@@H](n2c(Br)nc3cc(Cl)c(Cl)cc32)[C@H](O)[C@@H]1O	HFF	C9208/5-4-2	0.8 µM
Cn1cc(C(=O)NCc2ccc(Cl)cc2)c(=O)c2cc(CN3CCOCC3)ccc21	HFF	C8914-6 ganciclovir-resistant	>11 µM
Nc1nc2c(ncn2/C=C2/CC2(CO)CO)c(=O)[nH]1	HFF	GDGRP53 (ganciclovir- foscarnet-resistant)	0.8 µM
Nc1nc2c(ncn2C[C@@H]2CC[C@@H](P(=O)(O)O)O2)c(=O)[nH]1	HS68	AD169	0.09 µg/mL
COc1ccccc1CNC(=O)C1=Cc2ccncc2CC1	HS68	AD169	1.8 µM
CC/C=C\Cn1c(=O)sc2c(=O)[nH]c(N)nc21	-	AD169	<4 µM
Nc1nc2c(ncn2COC(CO)CO)c(=O)[nH]1	-	AD169	11.8 µM
CCc1cn([C@H]2C[C@H](O)[C@@H](CO)O2)c(=S)[nH]c1=O	MRC-5	AD169	>277.6 µM
Nc1ccn(C[C@H]2COP(=O)(O)CO2)c(=O)n1	MRC-5	Coffman	1.2 µM
CCCCCCCCCCCCCCCCCCOC[C@H](COP(=O)(O)CO[C@H](CO)Cn1ccc(N)nc1=O)OCc1ccccc1	HFF	VR4955 (foscarnet-resistant)	0.004 µM
Cn1cc(C(=O)NCc2ccc(Cl)cc2)c(=O)c2cc(CN3CCOCC3)ccc21	HFF	SA	1.6 µM
Nc1nc(=S)n([C@@H]2O[C@H](CO)[C@@H](O)[C@@H]2O)cc1/C=C/c1ccccc1	MRC-5	93-1R	>213 µM
CC(C)Oc1ccccc1CNC(=O)c1ccc2cnccc2n1	MRC-5	AD169	0.05 µM
Nc1ncnc2c1ncn2C=C1CC1CO	-	VR3480 (ganciclovir-resistant)	4.3 µM
C=Cc1cn([C@@H]2O[C@H](CO)[C@@H](O)[C@@H]2O)c(=S)nc1N	MRC-5	T-137	57.3 µM
CCCCCCCCCCCCCCCCOP(=O)(O)CO[C@H](CO)Cn1ccc(N)nc1=O	HFF	TOWNE	0.006 µM
C=Cc1cn([C@H]2C[C@H](O)[C@@H](CO)O2)c(=S)[nH]c1=O	MRC-5	AD169	>277.6 µM
CN(C)c1cccc2c(S(=O)(=O)Nc3ccc(NC(=O)C(C)(C)CO)cc3)cccc12	HFF	R56 (BDCRB-resistant)	1.9 µM
Nc1nc(=S)n([C@@H]2O[C@H](CO)[C@@H](O)[C@@H]2O)cc1CO	MRC-5	T-137	149.5 µM
OC[C@H]1O[C@@H](n2c(Cl)nc3cc(Cl)c(Cl)cc32)[C@H](O)[C@@H]1O	-	D10 (D341E)	18 µM
COc1cccc(N2CCN(C3=Nc4c(F)cccc4[C@H](CC(=O)O)N3c3cc(C(F)(F)F)ccc3OC)CC2)c1	-	Clinical isolate 16	0.0031 µM
CCCCCCCCCCCCCCCCCCOCCOP(=O)(O)CO[C@H](CO)Cn1ccc(N)nc1=O	MRC-5	TOWNE	0.0009 µM
O=C(NCc1ccc(Cl)cc1)c1c[nH]c2c(F)cccc2c1=O	-	AD169	6.4 µM
O=C(O)P(=O)(O)O	HEL	Clinical isolates	55 µM
O[C@@H]1[C@H](O)CO[C@H]1n1c(Cl)nc2cc(Cl)c(Cl)cc21	HFF	C4 (BDCRB- maribavir-resistant)	25 µM
Nc1nc2c(ncn2COC(CO)CO)c(=O)[nH]1	MRC-5	C8301	1.1 µM
Nc1ccn(C[C@@H](CO)OCP(=O)(O)O)c(=O)n1.O=C(O)P(=O)(O)O	MRC-5	Towne (ganciclovir- foscarnet-susceptible)	0.9 µM
NC(=O)c1c(Cl)c(-c2cccnc2)n2c1CCCC2	HEL	Acyclovir-resistant	0.18 µM
CCOP(=O)(O)CCC(CO)OCn1cnc2c(=O)[nH]c(N)nc21	MRC-5	CH ganciclovir-susceptible	47 µg/mL
OC[C@H]1O[C@@H](n2c(Br)nc3cc(Cl)c(Cl)cc32)[C@H](O)[C@@H]1O	HFF	TOWNE	1 µM
CNc1cccc2c(S(=O)(=O)Nc3ccc(NC(=O)C(C)(C)CO)cc3)cccc12	-	WILD TYPE	0.5 µM
O=c1[nH]c(=S)n([C@@H]2O[C@H](CO)[C@@H](O)[C@@H]2O)cc1/C=C/Br	MRC-5	93-1R	>213 µM
Nc1ncnc2c1ncn2C=C1CC1CO	HFF	AD169	2.1 µM
Nc1nc2c(ncn2COC(CO)CO)c(=O)[nH]1	HFF	CLEGG	1 µM
O[C@@H]1[C@H](O)[C@H](O)CO[C@H]1n1c(Br)nc2cc(Cl)c(Cl)cc21	HFF	C9208/3-3-1	2 µM
Nc1nc2c(ncn2C=C2CC2CO)c(=O)[nH]1	HFF	C8704/9-1-4	2.7 µM
Nc1nc2c(ncn2[C@@H]2C[C@H](CO)[C@H]2CO)c(=O)[nH]1.O=C(O)P(=O)(O)O	MRC-5	AD169 (ganciclovir foscarnet-susceptible)	1.18 µM
Nc1ccn(C[C@@H](CO)OCP(=O)(O)O)c(=O)n1	HFF	1117-R	1.6 µM
OC[C@H]1O[C@@H](n2c(Br)nc3cc(Cl)c(Cl)cc32)[C@H](O)[C@@H]1O	HFF	TOWNE	1.2 µM
CN(C)c1cccc2c(S(=O)(=O)Nc3ccc(NC(=O)C(C)(C)CO)cc3)cccc12	-	isolates B.K.3)	1.97 µM
Nc1nc(NC2CC2)c2ncn(C=C3CC3CO)c2n1	HFF	Toledo	5.5 µM
CC(C)Nc1nc2cc(Cl)c(Cl)cc2n1[C@H]1O[C@@H](CO)[C@H](O)[C@@H]1O	HFF	TOWNE	34 µM
O[C@@H]1[C@H](O)[C@H](O)CO[C@H]1n1c(Br)nc2cc(Cl)c(Cl)cc21	MRC-5	ACVRB (L802M)	1.4 µM
CCCCCCCCCCCCCCCCCCOCCOP1(=O)CO[C@@H](Cn2ccc(N)nc2=O)CO1	MRC-5	C9209/1-4-4 drug-resistant mutant	0.0045 µM
O=C(NCc1ccc(Cl)cc1)c1c[nH]c2ccc(C#CCO)cc2c1=O	-	Clinical isolates	1.3 µM
CCCCCCCCCCCCOCCCOP(=O)(O)CO[C@H](CO)Cn1ccc(N)nc1=O	HFF	C8914-6	0.2 µM
O=C(O)P(=O)(O)O	HFF	AD169	29 µg/mL
CCCCCCCC/C=C\CCCCCCCCOCCOP(=O)(O)CO[C@H](CO)Cn1ccc(N)nc1=O	HFF	Coffman	0.01 µM
Nc1nc2c(ncn2[C@@H]2C[C@H](CO)[C@H]2CO)c(=O)[nH]1	MRC-5	PC92 (ganciclovir- foscarnet-susceptible)	4.01 µM
O=C(NCCc1ccccc1)C1=Cc2ccncc2CC1	MRC-5	AD169	8.8 µM
CCCCCCCC/C=C\CCCCCCCOCCCOP(=O)(O)CO[C@H](CO)Cn1ccc(N)nc1=O	HFF	VR4760 (foscarnet-resistant)	0.002 µM

Repeating the final 6 entries:

| smiles | cell line | strain or isolate | result |
|---|---|---|---|
| CCCCCCCCCCCCOCCCOP(=O)(O)CO[C@H](CO)Cn1ccc(N)nc1=O | HFF | C8914-6 | 0.2 µM |
| O=C(O)P(=O)(O)O | HFF | AD169 | 29 µg/mL |
| CCCCCCCC/C=C\CCCCCCCCOCCOP(=O)(O)CO[C@H](CO)Cn1ccc(N)nc1=O | HFF | Coffman | 0.01 µM |
| Nc1nc2c(ncn2[C@@H]2C[C@H](CO)[C@H]2CO)c(=O)[nH]1 | MRC-5 | PC92 (ganciclovir- foscarnet-susceptible) | 4.01 µM |
| O=C(NCCc1ccccc1)C1=Cc2ccncc2CC1 | MRC-5 | AD169 | 8.8 µM |
| CCCCCCCC/C=C\CCCCCCCOCCCOP(=O)(O)CO[C@H](CO)Cn1ccc(N)nc1=O | HFF | VR4760 (foscarnet-resistant) | 0.002 µM |

Conditions beyond the fields shown may differ between rows. An empty or dashed field is not shown.